Data as given in patent publication US20050124645A1, “Methods and compositions for increasing CD4lymphocyte immune responsiveness” (priority 1998, published 2005).
Entries after “also recorded” stand apart in the source; their conditions may differ.

Test system: JAK3
Test: JAK3 kinase activity (pSTAT5/STAT5 O.D. ratio) in CD4+ T lymphocytes CD4-ligated before anti-CD3 stimulation
Type: cell-based, human
Settings: 20 U/ml, FIGS. 11A, 11B
Method: In this experiment, CD4^+ T cells were isolated and stimulated through TCR/CD3 with or without prior CD4 ligation as described in Example 1, and JAK3 kinase activity, indicated by phosphorylation of STATS, was determined.
Briefly, purified CD4^+ T lymphocytes were stimulated through TCR/CD3 with or without prior CD4 ligation as described in Example 1.20 U/ml IL-2 was added to the half of the cultures, and JAK3 kinase activity was determined as described in Examples 8 and 9.

“IL-2: cytokine which binds to receptors on T cells having γc; recombinant, R&D Systems” was tested, and the “JAK3 kinase activity (pSTAT5 to STAT5 O.D. ratio) in CD4-ligated T lymphocytes” value was “restores/increases; also recorded: increases JAK3 kinase activity”.
